Test results taken from patent US20150210738.
The exact form of at least one protein or probe is not confirmed.

Columns and labels:
Assay in all cases: FP
[1] = test system: AVP-pVIc complex; conditions: CITED McGrath 2001; pH 7.5; 6 bp site; purified recombinant protein
[2] = molecular target: pVIc (C-terminal peptide of pVI) (Human adenovirus 2) (UniProt P03274); conditions: CITED McGrath 2001 among footnotes; fluorescein-DNA, 20 mM Tris pH 8, 0.025% DDM; synthetic protein
[3] = molecular target: AVP (adenovirus proteinase) (UniProt P03252); conditions: CITED McGrath 2001; purified recombinant protein; protein details: Cy3B at Cys199 in sliding assays

Question: Which Kd [1] does the source give for “GATTGCATGATTAGAGTGTGCTGGATGTGATAGTGA (double strand) [36-mer dsDNA]” here?
Answer: The Kd was 4.65 nM.

Question: With “GACGACTAGGAT (double strand) [12-mer dsDNA]” as the sequence, how does the Kd [2] read?
Answer: Its Kd is 693 nM.

Question: What about the Kd [3] of the same sequence?
Answer: The Kd was 63.1 nM.
